Pooled drug test results. Numbers come from NIAID ChemDB, via PubChem.

All rows: tests in culture; organism: Hepatitis C virus; read-out: EC50

a–b is a range or a potency band. An empty or dashed field is not shown. Rows are shuffled and stem from different studies. ECn: concentration that inhibits the pathogen or its effect by n%.

compound | strain | method | setting | result
c1ccc(-c2[nH]c3cnccc3c2C2CCCCC2)cc1 | 1b | replicon |  | <100 µM
Cc1cccc(Cn2c(C(=O)O)c(-c3ccc[nH]c3=O)c3c4occ(C)c4ccc32)c1F |  | replicon |  | >1.5 µM
CCC[C@H](NC(=O)[C@@H]1[C@@H](CC)CCN1C(=O)[C@H](NC(=O)[C@H](NC(=O)c1cnccn1)C1CCCCC1)C(C)(C)C)C(=O)C(=O)NC1CC1 | Hepatitis C virus |  |  | 0.45 µM
COCCN(C(=O)c1ccc(Cl)cc1F)c1cc(-c2ccc(-c3cc4ncccn4n3)cc2)sc1C(=O)O | 1a | luciferase / replicon |  | 0.05–0.1 µM
CCCCCCCCOc1ccc(N(C(=O)c2cc(C)on2)c2nc(-c3ccc(Cl)s3)cs2)cc1 |  |  |  | <1 µM
Fc1ccc(-c2cc(Cn3ccc4nc(-c5ccccc5F)cc-4c3)on2)c(C(F)(F)F)c1 | 1b | replicon |  | <100 µM
NS(=O)(=O)c1ccc(CNc2nc(NCC(F)(F)F)c3nc(-c4ccc(Cl)c(S(N)(=O)=O)c4)ccc3n2)cc1 |  | replicon |  | <0.1 µM
Fc1ccccc1-c1cc2cn(Cc3ccc(OC(F)(F)F)cc3)ccc-2n1 | 1b | replicon |  | <100 µM
O=c1c(-c2noc(Cc3ccc(Cl)cc3)n2)cn(Cc2ccc(C(F)(F)F)cc2F)c2c1CNCC2 | 1b | replicon |  | <10 µM
CCCCCCCCOc1ccc(N(C(=O)CO)c2nc(-c3cccnc3)c(F)s2)cc1C(F)(F)F |  |  |  | <1 µM
O=C(O)c1c(-c2ccc[nH]c2=O)c2c3ncccc3ccc2n1Cc1ccccc1F |  | replicon |  | 1–10 µM
CC1CCC(C(=O)N(c2cc(-c3ccc(-c4cn5ccccc5n4)cc3)sc2C(=O)O)C2CCOCC2)CC1 | 1a | replicon / ELISA |  | 0.01–0.049 µM
COc1nc(N)nc2c1ncn2[C@@H]1O[C@H](COP(=O)(N[C@@H](C)C(=O)OC(C)C)Oc2ccccc2)[C@@H](O)[C@@]1(C)F | 2a | replicon | 63 d | 0.073 µM
CCCCCOc1ccc(N(C(=O)C2CC2)c2nc(-c3ccc(C(=O)N(C)C)cn3)cs2)cc1C(F)(F)F |  |  |  | >10 µM
CCNc1nc(NCc2ccc(F)cc2)nc2ccc(-c3ccc(F)cc3)nc12 |  | replicon |  | <0.1 µM
Cc1ccccc1Cc1nc(-c2cn(CC3CCCCC3)c3cc(N4CCN(C)CC4)c(F)cc3c2=O)no1 | 1b | replicon |  | >10 µM
CS(=O)(=O)CCNc1nc(NCc2ccc(S(N)(=O)=O)cc2)nc2ccc(-c3cnc(N)s3)nc12 |  | replicon |  | <0.1 µM
CCC[C@H](NC(=O)[C@@H]1[C@@H](C(C)(C)C)CCN1C(=O)[C@H](NC(=O)[C@H](NC(=O)c1cnccn1)C1CCCCC1)C(C)(C)C)C(=O)C(=O)NC1CC1 | Hepatitis C virus |  |  | >3 µM
CCCCCCCCOc1ccc(N(C(=O)C(=O)OC)c2nc(-c3ccc(F)c(F)c3)cs2)cc1 |  |  |  | <1 µM
CC(=O)c1ccc(-c2cc(N(C(=O)c3ccc(Cl)cc3Cl)C(C)C)c(C(=O)O)s2)s1 | 1b | luciferase / replicon |  | >5 µM
CC(C)(c1ccc(F)cc1)c1nnc(-c2cn(Cc3ccc(C(F)(F)F)cc3)c3cc(N4CCOCC4)c(F)cc3c2=O)o1 | 1b | replicon |  | <2 µM
COCCN(C(=O)C1CCC(C(F)(F)F)CC1)c1cc(-c2ccc(-c3cc4ncccc4o3)cc2)sc1C(=O)O | 1b | replicon / ELISA |  | 0.1–0.49 µM
Cc1cc(Br)ccc1C(=O)N(c1cc(-c2ccc(-c3cc4ncccn4n3)cc2)sc1C(=O)O)C(C)C | 1a | replicon / ELISA |  | 0.1–0.5 µM
O=C(Nc1cccc(-c2cc(-c3c(F)cccc3S(=O)(=O)N3CCOCC3)no2)c1)C(Cl)Cl |  | replicon |  | ≤10 µM
CCCCCOc1ccc(N(C(=O)CC(=O)OC)c2nc(-c3ccc(F)cc3)cs2)cc1F |  |  |  | <1 µM
Fc1cccc(-c2cc3ccn(Cc4ccc(-c5ccc(C(F)(F)F)cc5C(F)(F)F)nn4)cc-3n2)c1F | 1b | replicon |  | <100 µM
Nc1ccnc2cc(-c3ccc(-c4cc(N(C(=O)C5CCC(C(F)(F)F)CC5)C5CCOCC5)c(C(=O)O)s4)cc3)nn12 | 1b | replicon / ELISA |  | 0.005–0.0099 µM
CCC[C@H](NC(=O)[C@@H]1[C@@H](Cc2ccccc2)CCN1C(=O)[C@H](NC(=O)[C@H](NC(=O)c1cnccn1)C1CCCCC1)C(C)(C)C)C(=O)C(=O)NC1CC1 | Hepatitis C virus |  |  | 1.1 µM
O=C(CCl)Nc1cccc(-c2cc(-c3c(Cl)cccc3Cl)no2)c1 |  | replicon |  | ≤10 µM
CC(C)(c1ccc(F)cc1)c1nc(-c2cn(Cc3ccc(C(F)(F)F)cc3)c3cc(N4CCS(=O)(=O)CC4)c(F)cc3c2=O)no1 | 1b | replicon |  | <0.5 µM
O=C(Nc1cccc(-c2cc(-c3c(O)cccc3Cl)no2)c1)C(Cl)Cl |  | replicon |  | ≤10 µM
COCCNS(=O)(=O)c1cc(-c2ccc3nc(NCc4ccc(S(N)(=O)=O)cc4)nc(NCC(F)(F)F)c3n2)ccc1Cl |  | replicon |  | <0.1 µM
COc1cccc(Cl)c1-c1cc(-c2cccc(NC(=O)C(Cl)Cl)c2)on1 |  | replicon |  | ≤10 µM
CCCCCCCCOc1ccc(N(CC(N)=O)c2nc(-c3ccc(OCC(N)=O)cc3)cs2)cc1 |  |  |  | >10 µM
O=C(Nc1cccc(-c2cc(-c3c(C4CC4)cccc3C(F)(F)F)no2)c1)C(Cl)Cl |  | replicon |  | ≤10 µM
C[C@@H](c1ccccc1)n1cc(-c2noc(C(C)(C)c3ccccc3)n2)c(=O)c2cc(F)c(N3CCOCC3)cc21 | 1b | replicon |  | >10 µM
CS(=O)(=O)NC(=O)c1c(-c2ccc[nH]c2=O)c2c3c(ccc2n1Cc1cc(F)ccc1F)CCCO3 |  | replicon |  | <1 µM
COCC(C)N(C(=O)c1ccc(Cl)cc1F)c1cc(-c2ccc(-c3cc4ncccn4n3)cc2)sc1C(=O)O | 1b | luciferase / replicon |  | 0.005–0.01 µM
CCC[C@H](NC(=O)[C@@H]1[C@@H](C(CC)CC)CCN1C(=O)[C@H](NC(=O)[C@H](NC(=O)c1cnccn1)C1CCCCC1)C(C)(C)C)C(=O)C(=O)NC1CC1 | Hepatitis C virus |  |  | >3 µM
CC1CCC(C(=O)N(c2cc(-c3ccc(-c4cc5ncccn5n4)cc3)sc2C(=O)O)C2CCC(O)CC2)CC1 | 1b | replicon / ELISA |  | 0.01–0.049 µM
O=C(Nc1cc(-c2cc(-c3c(Cl)cccc3Cl)no2)ccc1N1CCOCC1)C(Cl)Cl |  | replicon |  | >10 µM
O=C(O)c1c(-c2ccc[nH]c2=O)c2c3c(ccc2n1Cc1cc(F)ccc1F)OC(F)(F)O3 |  | replicon |  | >1.5 µM
CC(C)N(C(=O)c1ccc(Cl)cc1Cl)c1cc(-c2ccc(-c3cn4ccsc4n3)cc2)sc1C(=O)O | 1a | replicon / ELISA |  | 0.1–0.5 µM
COc1cc2c(=O)c(-c3nc(Cc4ccccc4)no3)cn(CC3CCCCC3)c2cc1OC | 1b | replicon |  | >10 µM
N#CC1(NC(=O)c2ccc(-c3ccc4nc(NCc5ccc(F)cc5)nc(O[C@H]5CCOC5)c4n3)cc2)CC1 |  | replicon |  | <0.1 µM
CC(C)S(=O)(=O)NC(=O)c1c(-c2ccc[nH]c2=O)c2c3occc3c(F)cc2n1Cc1cc(C(N)=O)ccc1F |  | replicon |  | <0.5 µM
Fc1cccc(-c2cc3cn(Cc4cn(-c5ccc(Cl)cc5)nn4)ccc-3n2)c1F | 1b | replicon |  | <100 µM
NC(=O)c1cc(Cn2c(C(=O)O)c(-c3ccc[nH]c3=O)c3c4c(c(F)cc32)CCO4)cs1 |  | replicon |  | 0.5–1.5 µM
O=C(O)c1sc(-c2ccc(-c3cc4ncccc4o3)cc2)cc1N(C(=O)C1CCC(C(F)(F)F)CC1)C1CCOCC1 | 1a | replicon / ELISA |  | 0.01–0.049 µM
CCCCCCCOc1ccc(N(C(=O)C(=O)OC)c2nc(-c3ccc(Cl)s3)cs2)cc1 |  |  |  | <1 µM
CC1CCC(C(=O)N(c2cc(-c3ccc(-c4cc5ncccc5o4)cc3)sc2C(=O)O)C2CCOC2)CC1 | 1b | replicon / ELISA |  | 0.005–0.0099 µM
COC(=O)c1ccccc1-c1cc(-c2cccc(NC(=O)C(Cl)Cl)c2)on1 |  | replicon |  | ≤10 µM

Again, the opening 6 rows:

compound,strain,method,setting,result
c1ccc(-c2[nH]c3cnccc3c2C2CCCCC2)cc1,1b,replicon,,<100 µM
Cc1cccc(Cn2c(C(=O)O)c(-c3ccc[nH]c3=O)c3c4occ(C)c4ccc32)c1F,,replicon,,>1.5 µM
CCC[C@H](NC(=O)[C@@H]1[C@@H](CC)CCN1C(=O)[C@H](NC(=O)[C@H](NC(=O)c1cnccn1)C1CCCCC1)C(C)(C)C)C(=O)C(=O)NC1CC1,Hepatitis C virus,,,0.45 µM
COCCN(C(=O)c1ccc(Cl)cc1F)c1cc(-c2ccc(-c3cc4ncccn4n3)cc2)sc1C(=O)O,1a,luciferase / replicon,,0.05–0.1 µM
CCCCCCCCOc1ccc(N(C(=O)c2cc(C)on2)c2nc(-c3ccc(Cl)s3)cs2)cc1,,,,<1 µM
Fc1ccc(-c2cc(Cn3ccc4nc(-c5ccccc5F)cc-4c3)on2)c(C(F)(F)F)c1,1b,replicon,,<100 µM